The record followed here is patent publication US10206902B2, “Mono- or di-substituted indoles as dengue viral replication inhibitors” (priority 2014, dated 2019).

Molecules are shown by their SMILES. Where only a bound is given, the exact number is not on record here.

The data set deals with DENV-2 16681 strain. Description: DENV-2 antiviral assay (eGFP-labelled virus in Vero cells). The conditions noted are these: SI=CC50/EC50, DENV-2 antiviral assay. The data set is classed as cell-based, Dengue virus. The protocol: The antiviral activity of all the compounds of the invention was tested against DENV-2 16681 strain which was labeled with enhanced green fluorescent protein (eGPF). The culture medium consists of minimal essential medium supplemented with 2% of heat-inactivated fetal calf serum, 0.04% gentamycin (50 mg/mL) and 2 mM of L-glutamine. Vero cells, obtained from ECACC, were suspended in culture medium and 25 μL was added to 384-well plates (2500 cells/well), which already contain the antiviral compounds. Typically, these plates contain a 4-fold serial dilution of 9 dilution steps of the test compound at 200 times the final concentration in 100% DMSO (200 nL). In addition, each compound concentration is tested in quadruplicate (final concentration range: 25 μM-0.00038 μM). Finally, each plate contains wells which are assigned as virus controls (containing cells and virus in the absence of compound), cell controls (containing cells in the absence of virus and compound) and medium controls (containing medium in the absence of cells, virus and compounds). To the wells assigned as medium control, 25 μL of culture medium was added instead of Vero cells. Once the cells were added to the plates, the plates were incubated for 30 minutes at room temperature to allow the cells to distribute evenly within the wells. Next, the plates were incubated in a fully humidified incubator (37° C., 5% CO2) until the next day. Then, DENV-2 strain 16681, labeled with eGFP, was added at a multiplicity of infection (MOI) of 0.5. Therefore, 15 μL of virus suspension was added to all the wells containing test compound and to the wells assigned as virus control. In parallel, 15 μL of culture medium was added to the medium and cell controls. Next, the plates were incubated for 3 days in a fully humidified incubator (37° C., 5% CO2). At the day of the read out, the eGFP fluorescence was measured using an automated fluorescence microscope at 488 nm (blue laser). Using an in-house LIMS system, inhibition dose response curves for each compound were calculated and the half maximal effective concentration (EC50) was determined. Therefore, the percent inhibition (I) for every test concentration is calculated using the following formula: I=100*(ST−SCC)/(SVC−SCC); ST, SCC and SVC are the amount of eGFP signal in the test compound, cell control and virus control wells, respectively. The EC50 represents the concentration of a compound at which the virus replication is inhibited with 50%, as measured by a 50% reduction of the eGFP fluorescent intensity compared to the virus control. The EC50 is calculated using linear interpolation (Table 1).
Take `COc1cc(NC(C(=O)c2c[nH]c3c(F)cc(C)cc23)c2ccc(F)cc2OC)cc(OCCO)c1` (single isomer, unassigned) [Compound 12A, 2-(4-fluoro-2-methoxyphenyl)-1-(7-fluoro-5-methyl-1H-indol-3-yl)-2-((3-(2-hydroxyethoxy)-5-methoxyphenyl)amino)ethanone]: the SI is listed as 10.

For `COc1cc(NC(C(=O)c2c[nH]c3cc(F)c(F)cc23)c2ccc(F)cc2OC)cc(OCCO)c1` (single isomer, unassigned) [Compound 10A, 1-(5,6-difluoro-1H-indol-3-yl)-2-(4-fluoro-2-methoxy-phenyl)-2-((3-(2-hydroxyethoxy)-5-methoxyphenyl)amino)ethanone], the SI came to 19.

`COc1cc(NC(C(=O)c2c[nH]c3cc(OC)c(C)cc23)c2ccc(F)cc2OC)cc(OCCO)c1` (single isomer, unassigned) [Compound 6B, 2-(4-fluoro-2-methoxyphenyl)-2-((3-(2-hydroxyethoxy)-5-methoxyphenyl)amino)-1-(6-methoxy-5-methyl-1H-indol-3-yl)ethanone] gave an SI of 33.

The molecule `COc1cc(NC(C(=O)c2c[nH]c3c(Cl)c(OC)ccc23)c2ccc(F)cc2OC)cc(OCCO)c1` (single isomer, unassigned) [Compound 8B, 1-(7-chloro-6-methoxy-1H-indol-3-yl)-2-(4-fluoro-2-methoxyphenyl)-2-((3-(2-hydroxyethoxy)-5-methoxyphenyl)amino)ethanone] came in with an SI of 59.

Consider `COc1cc(NC(C(=O)c2c[nH]c3cc(F)ccc23)c2ccc(F)cc2OC)cc(OCCO)c1` (racemic) [Compound 1, 1-(6-fluoro-1H-indol-3-yl)-2-(4-fluoro-2-methoxyphenyl)-2-((3-(2-hydroxyethoxy)-5-methoxyphenyl)amino)ethanone], for which the SI is given as over 1564.

With `COc1cc(NC(C(=O)c2c[nH]c3c(Cl)c(OC)ccc23)c2ccc(F)cc2OC)cc(OCCO)c1` (racemic) [Compound 8, 1-(7-chloro-6-methoxy-1H-indol-3-yl)-2-(4-fluoro-2-methoxyphenyl)-2-((3-(2-hydroxyethoxy)-5-methoxyphenyl)amino)ethanone], the SI turned out to be 1733.

For the molecule `COc1cc(NC(C(=O)c2c[nH]c3cc(Cl)ccc23)c2ccc(F)cc2OC)cc(OCCO)c1` (single isomer, unassigned) [Compound 4B, 1-(6-chloro-1H-indol-3-yl)-2-(4-fluoro-2-methoxyphenyl)-2-((3-(2-hydroxyethoxy)-5-methoxyphenyl)amino)ethanone], the SI is 20.

`COc1cc(NC(C(=O)c2c[nH]c3c(C)cc(F)cc23)c2ccc(F)cc2OC)cc(OCCO)c1` (single isomer, unassigned) [Compound 9A, 2-(4-fluoro-2-methoxyphenyl)-1-(5-fluoro-7-methyl-1H-indol-3-yl)-2-((3-(2-hydroxyethoxy)-5-methoxyphenyl)amino)ethanone]: the SI was 14.

For the molecule `COc1cc(NC(C(=O)c2c[nH]c3c(C)c(Cl)ccc23)c2ccc(F)cc2OC)cc(OCCO)c1` (single isomer, unassigned) [Compound 3B, 1-(6-chloro-7-methyl-1H-indol-3-yl)-2-(4-fluoro-2-methoxyphenyl)-2-((3-(2-hydroxyethoxy)-5-methoxyphenyl)amino)ethanone], the SI was 32.

For `COc1cc(NC(C(=O)c2c[nH]c3c(F)c(F)ccc23)c2ccc(F)cc2OC)cc(OCCO)c1` (single isomer, unassigned) [Compound 5A, 1-(6,7-difluoro-1H-indol-3-yl)-2-(4-fluoro-2-methoxyphenyl)-2-((3-(2-hydroxyethoxy)-5-methoxyphenyl)amino)ethanone], the SI is given as 17.

Molecule `COc1cc(NC(C(=O)c2c[nH]c3cc(OC)c(F)cc23)c2ccc(F)cc2OC)cc(OCCO)c1` (racemic) [Compound 7, 2-(4-fluoro-2-methoxyphenyl)-1-(5-fluoro-6-methoxy-1H-indol-3-yl)-2-((3-(2-hydroxyethoxy)-5-methoxyphenyl)amino)ethanone] registered an SI of 1049.

For `COc1cc(NC(C(=O)c2c[nH]c3c(F)c(F)ccc23)c2ccc(F)cc2OC)cc(OCCO)c1` (racemic) [Compound 5, 1-(6,7-difluoro-1H-indol-3-yl)-2-(4-fluoro-2-methoxyphenyl)-2-((3-(2-hydroxyethoxy)-5-methoxyphenyl)amino)ethanone], the SI was 586.

The molecule `COc1cc(NC(C(=O)c2c[nH]c3cc(F)ccc23)c2ccc(F)cc2OC)cc(OCCO)c1` (single isomer, unassigned) [Compound 1B, 1-(6-fluoro-1H-indol-3-yl)-2-(4-fluoro-2-methoxyphenyl)-2-((3-(2-hydroxyethoxy)-5-methoxyphenyl)amino)ethanone] had an SI of 18.

Molecule `COc1cc(NC(C(=O)c2c[nH]c3c(C)c(OC)ccc23)c2ccc(F)cc2OC)cc(OCCO)c1` (racemic) [Compound 11, 2-(4-fluoro-2-methoxyphenyl)-2-((3-(2-hydroxyethoxy)-5-methoxyphenyl)amino)-1-(6-methoxy-7-methyl-1H-indol-3-yl)ethanone] showed an SI of 4455.

`COc1cc(NC(C(=O)c2c[nH]c3cc(OC)c(F)cc23)c2ccc(F)cc2OC)cc(OCCO)c1` (single isomer, unassigned) [Compound 7B, 2-(4-fluoro-2-methoxyphenyl)-1-(5-fluoro-6-methoxy-1H-indol-3-yl)-2-((3-(2-hydroxyethoxy)-5-methoxyphenyl)amino)ethanone] returned an SI of 39.

The molecule `COc1cc(NC(C(=O)c2c[nH]c3c(C)c(OC)ccc23)c2ccc(F)cc2OC)cc(OCCO)c1` (single isomer, unassigned) [Compound 11B, 2-(4-fluoro-2-methoxyphenyl)-2-((3-(2-hydroxyethoxy)-5-methoxyphenyl)amino)-1-(6-methoxy-7-methyl-1H-indol-3-yl)ethanone] displayed an SI of 28.

Turning to `COc1cc(NC(C(=O)c2c[nH]c3c(C)c(F)ccc23)c2ccc(F)cc2OC)cc(OCCO)c1` (single isomer, unassigned) [Compound 2A, 2-(4-fluoro-2-methoxyphenyl)-1-(6-fluoro-7-methyl-1H-indol-3-yl)-2-((3-(2-hydroxyethoxy)-5-methoxyphenyl)amino)ethanone], the SI is 8.1.

In turn, `COc1cc(NC(C(=O)c2c[nH]c3cc(F)c(F)cc23)c2ccc(F)cc2OC)cc(OCCO)c1` (racemic) [Compound 10, 1-(5,6-difluoro-1H-indol-3-yl)-2-(4-fluoro-2-methoxy-phenyl)-2-((3-(2-hydroxyethoxy)-5-methoxyphenyl)amino)ethanone] returned an SI of 1362.

Molecule `COc1cc(NC(C(=O)c2c[nH]c3c(C)c(F)ccc23)c2ccc(F)cc2OC)cc(OCCO)c1` (racemic) [Compound 2, 2-(4-fluoro-2-methoxyphenyl)-1-(6-fluoro-7-methyl-1H-indol-3-yl)-2-((3-(2-hydroxyethoxy)-5-methoxyphenyl)amino)ethanone] registered an SI of 1291.

For the molecule `COc1cc(NC(C(=O)c2c[nH]c3c(C)cc(F)cc23)c2ccc(F)cc2OC)cc(OCCO)c1` (racemic) [Compound 9, 2-(4-fluoro-2-methoxyphenyl)-1-(5-fluoro-7-methyl-1H-indol-3-yl)-2-((3-(2-hydroxyethoxy)-5-methoxyphenyl)amino)ethanone], the SI came out at 794.
